Results of unrelated studies side by side (data: NIAID ChemDB).

Shared fields: whole-cell or culture tests; organism: Reovirus; strain or isolate: TYPE 1; method: cytopathic effect; endpoint: EC50

Conditions beyond the fields shown may differ between rows.

N#Cc1cncc([C@@H]2O[C@H](CO)[C@@H](O)[C@@H]2O)c1 ; cell line: VERO ; result: ≥100 µg/mL
Nc1ncnc2c1ncn2[C@@H]1C[C@H](CO)[C@@H](O)[C@H]1O ; cell line: VERO ; result: 2 µg/mL
NC1CSCON2CCc3c([nH]c4ccccc34)[C@H]12 ; cell line: VERO ; result: 0.4 µg/mL
CC1(C)[C@@H](CO)CC[C@@]1(C)Cn1nnc2c(=O)[nH]cnc21 ; cell line: VERO ; result: >400 µg/mL
C=C(N=CC)c1nc(-c2cccc(C)c2)n([C@@H]2O[C@H](CO)[C@@H](O)[C@H]2O)n1 ; cell line: VERO ; result: >40 µg/mL
Nc1ccn([C@@H]2OC[C@H](CO)[C@H]2O)c(=O)n1 ; cell line: VERO ; result: >80 µg/mL
N#Cc1cncc([C@H]2O[C@H](CO)[C@H](O)[C@@H]2O)c1 ; cell line: VERO ; result: ≥100 µg/mL
Nc1ncnc2c1ncn2[C@@H]1C[C@H](COP(=O)(O)O)[C@@H](O)[C@H]1O ; cell line: VERO ; result: >200 µg/mL
Cc1nc(CC(O)CO)c2nc[nH]c(=O)n12 ; cell line: VERO ; result: >400 µg/mL
CC=NC(=N)c1nc(-c2cccc(C)c2)n(COCCO)n1 ; cell line: VERO ; result: 10 µg/mL
c1ccc(C2=Nn3c(nnc3-c3cn(-c4ccccc4)nc3-c3ccccc3)SC2)cc1 ; cell line: VERO ; result: >16 µg/mL
CC1(C)[C@@H](CCO)C[C@H]1n1cnc2c(=O)[nH]c(N)nc21 ; cell line: VERO ; result: >400 µg/mL
CC(C)CS[C@H]1C[C@@H](n2cnc3c(N)ncnc32)[C@H](O)[C@@H]1O ; cell line: HeLa ; result: >80 µg/mL
N#Cc1cncc([C@H]2O[C@H](CO)[C@@H](O)[C@@H]2O)c1 ; cell line: VERO ; result: ≥100 µg/mL
CC1(C)[C@@H](CCO)C[C@H]1n1nnc2c(=O)[nH]cnc21 ; cell line: VERO ; result: 150 µg/mL
Nc1nc2c(ncn2CCCC(O)CF)c(=O)[nH]1 ; cell line: VERO ; result: >400 µg/mL
CCOC(=O)CSc1nnc(-c2cn(-c3ccccc3)nc2-c2ccccc2)n1N ; cell line: VERO ; result: >16 µg/mL
CC1(C)[C@@H](CCO)C[C@H]1n1cnc2c(N)ncnc21 ; cell line: VERO ; result: >400 µg/mL
Cc1cn([C@@H]2OC[C@H](CO)[C@H]2N=[N+]=[N-])c(=O)[nH]c1=O ; cell line: VERO ; result: >80 µg/mL
CCC(Sc1ncnc2c1cnn2COCC(O)CO)C(N)=O ; cell line: VERO ; result: >400 µg/mL
CC=NC(=N)c1nc(-c2ccccc2)n(COCCO)n1 ; cell line: VERO ; result: 150 µg/mL
NC1=CC(c2ccccc2)=Nn2c(nnc2-c2cn(-c3ccccc3)nc2-c2ccccc2)S1 ; cell line: VERO ; result: >16 µg/mL
NC(=O)c1cncc([C@H]2O[C@H](CO)[C@H](O)[C@@H]2O)c1 ; cell line: VERO ; result: ≥100 µg/mL
CC(=O)Nc1nc2c(CC(O)CO)ncn2c(=O)[nH]1 ; cell line: VERO ; result: >200 µg/mL
CC1(CO)CCC(Cn2nnc3c(=O)[nH]c(N)nc32)C1(C)C ; cell line: VERO ; result: >200 µg/mL
Cc1nn2c(-c3cn(-c4ccccc4)nc3-c3ccccc3)nnc2s1 ; cell line: VERO ; result: >3.2 µg/mL
OC[C@H]1O[C@H](c2cncc(Br)c2)[C@@H](O)[C@@H]1O ; cell line: VERO ; result: ≥100 µg/mL
C=CCc1nc(C)n2c(=O)[nH]c(NC(C)=O)nc12 ; cell line: VERO ; result: >200 µg/mL
CC1(C)[C@@H](CO)CC[C@@]1(C)Cn1cnc2c(Cl)ncnc21 ; cell line: VERO ; result: >400 µg/mL
Nc1nc2c(ncn2[C@H]2OC[C@@H](CO)C2O)c(=O)[nH]1 ; cell line: VERO ; result: >16 µg/mL
CC(Sc1ncnc2c1cnn2COCCO)C(N)=O ; cell line: VERO ; result: >400 µg/mL
Nc1ncnc2c1ncn2C(CF)CCCO ; cell line: VERO ; result: >400 µg/mL
CCOC(=O)Sc1nnc(-c2cn(-c3ccccc3)nc2-c2ccccc2)n1N ; cell line: VERO ; result: >80 µg/mL
CC1(CO)CCC(Cn2cnc3c(Cl)nc(N)nc32)C1(C)C ; cell line: VERO ; result: >200 µg/mL
Nn1c(SCC(=O)O)nnc1-c1cn(-c2ccccc2)nc1-c1ccccc1 ; cell line: VERO ; result: >80 µg/mL
CCC(Sc1ncnc2c1cnn2CCCCO)C(N)=O ; cell line: VERO ; result: >400 µg/mL
OC[C@H]1O[C@@H](c2cncc(Br)c2)[C@@H](O)[C@@H]1O ; cell line: VERO ; result: ≥100 µg/mL
C=C(N=CC)c1nc(-c2ccc(C)cc2)n([C@@H]2O[C@H](CO)[C@@H](O)[C@H]2O)n1 ; cell line: VERO ; result: >40 µg/mL
O=c1[nH]n2c(-c3cn(-c4ccccc4)nc3-c3ccccc3)nnc2sc1=O ; cell line: VERO ; result: >80 µg/mL
CC1(C)[C@@H](CO)CC[C@@]1(C)Cn1ccc(=O)[nH]c1=O ; cell line: VERO ; result: >400 µg/mL
CON1CCc2c([nH]c3ccccc23)[C@@H]1[C@@H](N)CSC ; cell line: VERO ; result: >40 µg/mL
CC1(CO)CCC(Cn2cnc3c(=O)[nH]c(N)nc32)C1(C)C ; cell line: VERO ; result: >400 µg/mL
OC[C@H]1O[C@@H](c2cc(/C=C/Br)c(F)cc2F)C[C@@H]1O ; cell line: VERO ; result: >16 µg/mL
OC[C@H]1O[C@H](c2cncc(Br)c2)[C@@H](O)[C@H]1O ; cell line: VERO ; result: ≥100 µg/mL
NC1CCCON2CCc3c([nH]c4ccccc34)[C@H]12 ; cell line: VERO ; result: 2 µg/mL

The last 3 rows once more:

| structure | cell line | result |
|---|---|---|
| OC[C@H]1O[C@@H](c2cc(/C=C/Br)c(F)cc2F)C[C@@H]1O | VERO | >16 µg/mL |
| OC[C@H]1O[C@H](c2cncc(Br)c2)[C@@H](O)[C@H]1O | VERO | ≥100 µg/mL |
| NC1CCCON2CCc3c([nH]c4ccccc34)[C@H]12 | VERO | 2 µg/mL |

ECn is the concentration giving n% inhibition of infection, replication or growth.